# Reference: patent publication US20250312349A1, “COMPOSITION AND METHODS OF TREATING INTRACELLULAR PATHOGEN INFECTION” (UNIVERSITY HOSPITALS CLEVELAND MEDICAL CENTER, priority 2024, published 2025)
# Test system: IFN-γ, TNF-α, IL-12 p40, NOS2, anti-T. gondii IgG
# Assay: Cytokine mRNA in eye and brain, serum cytokines and anti-T. gondii IgG in infected treated mice
structure (smiles),measurement,setting,value
"CN1CCN(CCOc2cc(OC3CCOCC3)c3c(Nc4c(Cl)ccc5c4OCO5)ncnc3c2)CC1 [Saracatinib, N-(5-chloro-1,3-benzodioxol-4-yl)-7-(2-(4-methylpiperazin-1-yl)ethoxy)-5-(tetrahydro-2H-pyran-4-yloxy)quinazolin-4-amine]",serum IFN-γ levels,ELISA,modest increase
same,serum levels of TNF-α and IL-12 p40,ELISA,did not affect
same,"local expression of IFN-γ, TNF-α, IL-12 p40 and NOS2","mRNA in eye and brain, RT-qPCR",not the result of increased local expression
same,Anti-T. gondii IgG levels,"serum, ELISA",unchanged
